Amino acid sequences for entries named in this document (tags omitted). Residues count along the entry.
UniProt Q8WSF8, 20-236 A155V/A60V limits assumed: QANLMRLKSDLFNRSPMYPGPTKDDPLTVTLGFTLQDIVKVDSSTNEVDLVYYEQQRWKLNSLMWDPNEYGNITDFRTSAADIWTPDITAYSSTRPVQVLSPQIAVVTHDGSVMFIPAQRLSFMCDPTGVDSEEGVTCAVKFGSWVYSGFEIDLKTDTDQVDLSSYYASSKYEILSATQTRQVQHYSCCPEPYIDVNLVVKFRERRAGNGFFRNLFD

According to paper PMC9435674, “Delineating the activity of the potent nicotinic acetylcholine receptor agonists (+)-anatoxin-a and (−)-hosieine-A” (2022):

How the values were obtained:
AcAChBP [1] = molecular target: T1, AcAChBP (Aplysia californica, UniProt Q8WSF8, A155V/A60V); conditions: ITC; ref Dawson et al., 2019; cited from earlier work
[2] = ref Koskinen & Rapoport, 1985; cited from earlier work
AcAChBP [3] = molecular target: T1, AcAChBP; experiment: Equilibrium tryptophan fluorescence-quenching assay; conditions: read-out: K d2 (dissociation constant from fluorescence measurements), emission 337 nm, room temperature, n = 3, standard error
AcAChBP [4] = molecular target: T1, AcAChBP; experiment: Isothermal titration calorimetry (ITC) of ligand binding to AcAChBP; conditions: for Kd: read-out: K d1 (dissociation constant from ITC), 25°C, n = 3, standard error

Structure (SMILES) | entropic contribution to binding (−TΔS) (AcAChBP [1]) [kcal/mol] | pK a [2] | Kd (AcAChBP [3]) [nM] | Kd (AcAChBP [4]) [nM] | N (sites), molar ratio (AcAChBP [4]; 25°C, n = 3, standard error) | ΔG (AcAChBP [4]; 25°C, n = 3, standard error) [kcal/mol] | ΔH (AcAChBP [4]; 25°C, n = 3, standard error) [kcal/mol] | −TΔS (AcAChBP [4]; 25°C, n = 3, standard error) [kcal/mol]
O=C1C[C@@H]2OCC=C3CN4CC[C@]56c7ccccc7N1[C@H]5[C@H]2[C@H]3C[C@H]46 | -1.9 ± 0.5 | – | – | – | – | – | – | –
CC(=O)C1=CCCC2CCC1N2 (racemic) | – | 9.4 | 150 | 300 | – | – | – | –
CC(=O)C1=CCCC2CCC1N2 (single isomer, unassigned) | – | – | 150 | 300 | 0.5 ± 0.02 | -8.9 ± 0.1 | -12.5 ± 0.2 | 3.6 ± 0.2
